Assay results reported in PubChem BioAssay AID504582 (Broad Institute, 2011).
This is a selection; strong and weak results do not stand in their true shares. Some salts or complexes appear as unconnected parts, following the source record. Activity calls are given as the source filed them. No stated cut-off is given here; in the data, active means growth rescue above about 28% (passing the limit was not always enough); inconclusive means no clear call, values can overlap the other calls.

Experiment: rescue of yeast from PfHsp40 toxicity, primary screen, S. cerevisiae, ATP luminescence (AID 504582);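 further: yeast W303a lacking pdr1 and pdr3 grown in galactose medium; growth measured after three days at 30 °C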
Conditions: S. cerevisiae expressing PfHsp40, growth rescue, at 12.5 µM, stronger effect = higher value

Compound | growth rescue
COc1ccccc1OP(C)(=O)Nc1cc(Cl)ccc1C (centres undefined) | inactive: -0.852%
COc1ccc(OP(C)(=O)Nc2cccc(F)c2)cc1 (centres undefined) | inactive: 1.42%
Cc1cc(C)cc(OP(C)(N)=O)c1 (centres undefined) | inactive: -0.028%
CCOC(=O)c1ccc(NP(C)(=O)Oc2ccccc2)cc1 (centres undefined) | inactive: 0.0695%
COc1ccccc1OP(C)(=O)Nc1ccc(C)cc1 (centres undefined) | inactive: 0.258%
Cc1ccc(NP(C)(=O)Oc2ccccc2)c(C)c1 (centres undefined) | inactive: 21.4%
CC(C)(C)c1ccc(OP(C)(=O)Nc2ccc(SC(F)(F)F)cc2)cc1 (centres undefined) | active: 35%
Cc1cccc(C)c1OP(C)(N)=O (centres undefined) | inactive: -0.057%
O=[N+]([O-])c1ccc2c(c1)C=Nc1ccccc1O2 | inactive: 0.292%
O=[N+]([O-])c1cc([N+](=O)[O-])c(Nc2cccnc2)c([N+](=O)[O-])c1 | inactive: -2.01%
COc1cc(C(=O)NCC2(N3CCOCC3)CCCCC2)ccc1OCC(C)C | inactive: -0.781%
CCN(CC)CCCOC(=O)C(O)(c1ccccc1)c1ccccc1 | inactive: 0.0395%
CP(=O)(Nc1ccccn1)Oc1ccc(Cl)cc1 (centres undefined) | inactive: -1.54%
CCOP(C)(=S)SCC(=O)NC(C)C(=O)O (centres undefined) | inactive: 1.19%
CCOC(=O)c1ccc(NP(C)(=O)Oc2ccc(OC)cc2)cc1 (centres undefined) | inactive: 0.995%
CCc1ccc(OP(C)(=O)N2CCN(c3ccc([N+](=O)[O-])cc3)CC2)cc1 (centres undefined) | inactive: 6.6%
CP(=O)(NC(=O)Nc1ccccc1)Oc1ccccc1 (centres undefined) | inactive: -0.712%
Cc1cc(C)cc(OP(C)(=O)Nc2ccc(SC(F)(F)F)cc2)c1 (centres undefined) | inactive: 0.772%
CC(=O)OCC12CC(OC(=O)CC(C)C)C(C)=CC1OC1C(O)C(OC(C)=O)C2(C)C12CO2 (centres undefined) | inactive: 18.2%
Cc1cccc(C)c1OP(C)(=O)Nc1ccc(SC(F)(F)F)cc1 (centres undefined) | inactive: -0.671%
CP(=O)(Oc1ccccc1)OC(c1ccccc1)C(F)(F)F (centres undefined) | inactive: 0.862%
COc1ccccc1OP(C)(=O)Nc1ccccc1 (centres undefined) | inactive: -0.341%
CP(=O)(Nc1ccccc1Br)Oc1ccccc1 (centres undefined) | inactive: -0.147%
CP(=S)(Nn1cnnc1)Oc1ccccc1 (centres undefined) | inactive: -0.321%
CCCCOc1ccc(C(=O)NCC2(N3CCCCC3)CCCCC2)cc1OC | inactive: -0.702%
CP(=O)(Nc1ccc(SC(F)(F)F)cc1)Oc1ccccc1 (centres undefined) | inactive: 3.03%
CCCOc1ccc(NP(C)(=O)Oc2ccc(Cl)cc2)cc1 (centres undefined) | inactive: 3.66%

Compound | growth rescue
COc1ccccc1OP(C)(=O)Nc1c(C)cccc1C (centres undefined) | inactive: 0.006%
CN1CCCCC1COC(=O)C1(O)c2ccccc2CCc2ccccc21 (centres undefined) | inactive: 2.06%
O=[N+]([O-])c1cc([N+](=O)[O-])c(Nc2nnnn2CCO)c([N+](=O)[O-])c1 | inactive: 0.409%
CN(C)C1(CNC(=O)c2ccc(S(C)(=O)=O)cc2)CCCCC1 | inactive: 0.317%
CC1=C2N=C(C=C3N=C(C(C)=C4[N-][C@@](C)([C@@H]5N=C1[C@](C)(CCC(=O)NC[C@@H](C)OP(=O)([O-])O[C@H]1[C@@H](O)[C@@H](n6cnc7cc(C)c(C)cc76)O[C@@H]1CO)[C@H]5CC(N)=O)[C@@](C)(CC(N)=O)[C@@H]4CCC(N)=O)[C@@](C)(CC(N)=O)[C@@H]3CCC(N)=O)C(C)(C)[C@@H]2CCC(N)=O.[C-]#N.[Co+3] | inactive: -0.271%
CCOC(=O)C(CC)C1=NC(C)(C)Cc2ccccc21.O=[N+]([O-])c1cc([N+](=O)[O-])c(O)c([N+](=O)[O-])c1 (centres undefined) | inactive: 0.791%
CC1CCOC(=O)C=CC=CC(=O)OC2CC3OC4C5OC5(C)CCC4(COC(=O)C1O)C2(C)C31CO1 (centres undefined) | active: 102%
Cc1nc2ccc3ccccc3c2s1.O=[N+]([O-])c1cc([N+](=O)[O-])c(O)c([N+](=O)[O-])c1 | inactive: -2.72%
O=[N+]([O-])c1cc([N+](=O)[O-])c(-c2cnn(-c3ccccc3)c2)c([N+](=O)[O-])c1 | active: 110%
O=[N+]([O-])c1cc([N+](=O)[O-])c(-n2nnc3ccccc32)c([N+](=O)[O-])c1 | inactive: -0.815%
CP(=O)(Nc1cccc(Br)c1)Oc1ccccc1 (centres undefined) | inactive: -0.783%
Cc1cc(C)cc(OP(C)(=O)Nc2ccccn2)c1 (centres undefined) | inactive: 0.269%
Cc1ccc(C)c(NP(C)(=O)Oc2ccccc2)c1 (centres undefined) | inactive: -1.28%
Cc1cc(C)cc(OP(C)(=O)Nc2ccc(C)cc2C)c1 (centres undefined) | inactive: -0.656%
CCOC(=O)c1ccc(NP(C)(=O)Oc2cc(C)cc(C)c2)cc1 (centres undefined) | inactive: 0.822%
COc1cc(C(=O)NCC2(N3CCOCC3)CCCCC2)cc(Cl)c1OC(C)C | inactive: 0.651%
COc1ccccc1OP(C)(=O)Nc1cccc(Br)c1 (centres undefined) | inactive: -0.478%
CC1=NCCc2c1[nH]c1ccccc21.O=[N+]([O-])c1cc([N+](=O)[O-])c(O)c([N+](=O)[O-])c1 | inactive: 0.219%
O=C(O)c1cccc(Nc2c([N+](=O)[O-])cc([N+](=O)[O-])cc2[N+](=O)[O-])c1 | inactive: 0.816%
O=[N+]([O-])c1cc([N+](=O)[O-])c(OC2CCCCC2O)c([N+](=O)[O-])c1 (centres undefined) | inactive: -0.536%
CCCCCOc1ccc(NP(C)(=O)Oc2ccc(Cl)cc2Cl)cc1 (centres undefined) | inactive: -0.16%
CP(=O)(Nc1ccccc1)Oc1ccc(F)cc1 (centres undefined) | inactive: -1.28%
CCN(CC)CCCOC(=O)C(O)(c1ccccc1)C1CCCCC1 (centres undefined) | inactive: -1.12%
Cc1c([N+](=O)[O-])cc([N+](=O)[O-])c(Br)c1[N+](=O)[O-] | inactive: -0.459%
COc1ccc(OP(C)(=O)Nc2ccc(SC(F)(F)F)cc2)cc1 (centres undefined) | inactive: -0.427%
CCOC(=O)c1ccc(NP(C)(=O)Oc2ccc(F)cc2)cc1 (centres undefined) | inactive: -0.0685%
COc1ccc2c(c1O)-c1c(O)c(OC)cc3c1[C@H](C2)[N+](C)(C)CC3.O=[N+]([O-])c1cc([N+](=O)[O-])c([O-])c([N+](=O)[O-])c1[O-] | inactive: -1.15%
